Biological target: ΔCR PrP (Mus musculus, UniProt P04925, DEL105-125)
Assay: SPR binding to ΔCR PrP
Conditions: 17,000 RU ΔCR PrP amine coupled; Langmuir fit

The chains behind the UniProt entries cited, without tags or fusion partners. A line that says so, or that is headed by a name, gives the form on record, which may keep a tag or linker.
UniProt P04925, with tags, fused parts or gaps DEL105-125 limits assumed: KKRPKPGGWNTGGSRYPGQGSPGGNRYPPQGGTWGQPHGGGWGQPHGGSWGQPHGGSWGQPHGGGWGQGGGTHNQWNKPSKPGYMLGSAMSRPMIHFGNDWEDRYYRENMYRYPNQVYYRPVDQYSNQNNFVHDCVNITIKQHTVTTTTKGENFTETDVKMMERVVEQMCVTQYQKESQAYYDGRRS

NC(=S)NN=C1C(O)C(O)C(O)C(O)C1O [DS26, 2-(2R,3S,5R,6S-pentahydroxycyclohexylidene)hydrazinecarbothioamide]
Kd: 900 nM
